For one substance, isolated mass and isolated yield results are on record in patent EP0271041A2 (ABBOTT LABORATORIES, priority 1986, dated 1988).

This series is described as follows: general procedure: Boc solid-phase peptide synthesis; N-alpha-t-Boc-Arginyl(NG-Tos)-O Merrifield resin; diisopropylcarbodiimide. The conditions noted are these: whole synthesis.

Regarding “Seryl-Seryl-Cysteinyl-Phenylalanyl-Glycyl-Glycyl-Arginyl-Isoleucyl-Aspartyl-Arginyl-Isoleucyl Cysteinyl-Phenylalanyl-Arginyl Cyclic Disulfide”, the isolated mass is given as 20 mg. The substance further yielded an isolated yield (scale of the general procedure 0.5 g - 1.0 g resin) of 6%.
